These results are taken from PMC11477194, “3-Alkoxy-1-Benzyl-5-Nitroindazole Derivatives Are Potent Antileishmanial Compounds” (International Journal of Molecular Sciences, 2024).

Common to all, as to assay type: cell-based
The subject of data set [1] is L. amazonensis promastigotes. The experiment in a line: Susceptibility assay in promastigotes, L. amazonensis. The settings on record: selectivity index for promastigotes, CC50/IC50, L. amazonensis. An excerpt:
(§1) The strains used in this research were MHOM/BR/77/LTB0016 of L. amazonensis from the Pedro Kouri Institute of Tropical Medicine Cuba strains collection, MHOM/FR/78/LEM75 of L. infantum from the Department of Parasitology, Faculty of Pharmacy of the Complutense University of Madrid Spain, and MNYC/BZ/62/M379 of L. mexicana from the Laboratory of Molecular Immunobiochemistry and Heart Diseases UNAM-INC Mexico Research Unit. The parasites were obtained from the skin lesions of previously infected BALB/c mice and maintained at 26 °C in Schneider medium (SIGMA, St. Louis, MO, USA) and supplemented with antibiotics (penicillin sodium 200 IU/mL and streptomycin 200 μg/mL SIGMA, St. Louis, MO, USA) and 10% fetal bovine serum (FBS, SIGMA, St. Louis, MO, USA), and inactivated with heat (56 °C, 30 min). The promastigotes, once isolated, were kept in the exponential multiplication phase by successive subcultures every 3 or 4 days until the time of use.
(§2) Susceptibility assay in promastigotes: Promastigotes culture in the exponential growth phase were seeded in 96-well plates (10^6 parasites/mL) at a final volume of 200 μL/well. Compounds were tested in serial 1/2.5 dilutions (130–0.2 μM). The treated cultures were incubated for 72 h at 26 °C.
(§3) Every concentration of the test compounds was assessed in quadruplicate.
(§4) Cell viability was assessed using the resazurin transformation method. After the incubation period, 20 μL of 3 mM resazurin solution prepared in sterile PBS was added to each well. Reading was performed at 540 nm excitation and 590 nm emission wavelengths after 8 h of incubation in a 96-well plate reader (SUMA®, Habana, Cuba). The mean fluorescence intensity was calculated for each concentration. From the mean values of fluorescence and the corresponding product concentrations, a non-linear fit to the Emax sigmoid model was performed, and the mean inhibitory concentrations (IC50), mean effective concentrations (EC50), and the mean cytotoxic concentration (CC50) were estimated. The selectivity index was calculated as SIp = CC50/IC50 and SIa = CC50/EC50 for the promastigote and amastigote stages, respectively.

Data set [2] deals with L. infantum promastigotes. The experiment in a line: Susceptibility assay in promastigotes, L. infantum. The conditions noted are these: selectivity index for promastigotes, CC50/IC50, L. infantum.
Text: as §1, §2, §3, §4

Data set [3] has as its system L. mexicana promastigotes. The experiment in a line: Susceptibility assay in promastigotes, L. mexicana. The conditions noted are these: selectivity index for promastigotes, CC50/IC50, L. mexicana. As to the method: The strains used in this research were MHOM/BR/77/LTB0016 of L. amazonensis from the Pedro Kouri Institute of Tropical Medicine Cuba strains collection, MHOM/FR/78/LEM75 of L. infantum from the Department of Parasitology, Faculty of Pharmacy of the Complutense University of Madrid Spain, and MNYC/BZ/62/M379 of L. mexicana from the Laboratory of Molecular Immunobiochemistry and Heart Diseases UNAM-INC Mexico Research Unit. […]
as §3
as §4, with “After the incubation period, 20 μL of 3 mM resazurin solution prepared in sterile PBS was added to each well.” left out

Data set [4] has as its system L. amazonensis intracellular amastigotes. Put plainly: Intracellular amastigote assay, L. amazonensis. The settings on record: selectivity index for amastigotes, CC50/EC50, L. amazonensis.
Text: as §1
(§5) Intracellular amastigote assay: Macrophages were seeded in 96-well plates at an initial density of 10^5 cells/mL in a final volume of 200 µL per well. After 2 h of incubation at 33 °C and 5% CO2, the cell monolayer was infected with a culture of promastigotes in the stationary phase of growth at a ratio of 10:1 (promastigotes: macrophages) and incubated under the same conditions for 4 h. The compounds were tested in serial dilutions of 1/2.5 (15–0.02 μM). The treated cultures were then incubated for 48 h under similar conditions. After incubation, the RPMI medium was removed and replaced with Schneider’s medium. Cultures were incubated for 72 h at 26 °C to allow the surviving amastigotes to transform into promastigotes and replicate.
as §3, §4

In data set [5] the test system is L. infantum intracellular amastigotes. Put plainly: Intracellular amastigote assay, L. infantum. The settings on record: selectivity index for amastigotes, CC50/EC50, L. infantum.
Text: as §1, §5, §3, §4

Consider `C[C@@H]1[C@H](O)[C@@H](C)/C=C/C=C/C=C/C=C/C=C/C=C/C=C/[C@H](O[C@@H]2O[C@H](C)[C@@H](O)[C@H](N)[C@@H]2O)C[C@@H]2O[C@](O)(C[C@@H](O)C[C@@H](O)[C@H](O)CC[C@@H](O)C[C@@H](O)CC(=O)O[C@H]1C)C[C@H](O)[C@H]2C(=O)O` [AmB, Amphotericin B, reference compound], for which the SIp is reported as 193 in data set [1], 21 in data set [2] and 126 in data set [3]. Also, the SIa turned out to be 170 in data set [4] and 10 in data set [5].
`CN(C)CCOc1nn(Cc2ccccc2)c2ccc([N+](=O)[O-])cc12` [NV4] returned an SIa in data set [4] of 5.
Turning to `O=[N+]([O-])c1ccc2c(c1)c(OCCN1CCCCC1)nn2Cc1ccccc1` [NV7], the SIa is 5 in data set [4] and 2 in data set [5].
In turn, `NCCCOc1nn(Cc2ccccc2)c2ccc([N+](=O)[O-])cc12` [NV9] came in with an SIa in data set [5] of 5.
`O=[N+]([O-])c1ccc2c(c1)c(OCCBr)nn2Cc1ccccc1` [NV11] had an SIp in data set [2] of 0.2.
Take `O=[N+]([O-])c1ccc2c(c1)c(OCCCCCBr)nn2Cc1ccccc1` [NV12]: the SIp in data set [1] was 2; in data set [2], 0.1.
In the case of `CNCCOc1nn(Cc2ccccc2)c2ccc([N+](=O)[O-])cc12` [NV13], the SIa in data set [4] amounted to 11; in data set [5], 4.
Turning to `CN(C)CCCCCOc1nn(Cc2ccccc2)c2ccc([N+](=O)[O-])cc12` [NV14], the SIp in data set [1] worked out at 6; in data set [2], 3.
As for `CNCCCCCOc1nn(Cc2ccccc2)c2ccc([N+](=O)[O-])cc12` [NV15], the SIp in data set [1] is reported as 4; in data set [2], 4.4.
`O=[N+]([O-])c1ccc2c(c1)c(OCCCCCN1CCCCC1)nn2Cc1ccccc1` [NV16] had an SIp in data set [2] of 15.
`NCCCCCOc1nn(Cc2ccccc2)c2ccc([N+](=O)[O-])cc12` [NV17] gave an SIp in data set [1] of 8. This compound also yielded an SIa in data set [5] of 1.
